Compound potency records, mixed from different reports. Data source: NIAID ChemDB in PubChem.

Common to all: whole-cell or culture tests; species: HIV-1; cell line: PBMC; measure: EC50

An empty or dashed field is not shown.

compound,strain or isolate,mutations,read by,setting,result
Nc1nc(N)c2ncn([C@H]3CO[C@@H](CO)O3)c2n1,LAI,-,RT activity,-,6.9 µM
Cc1nnn([C@H]2C[C@H](n3ccc(=O)[nH]c3=O)O[C@@H]2CO)c1C,LAV,-,RT activity,-,>100 µM
COc1cc(OC)nc(N2C(=O)CSC2c2c(Cl)cccc2[N+](=O)[O-])n1,VB51,-,p24 / ELISA,-,0.003 µg/mL
COC(=O)[C@H](C)NP(=O)(OC[C@H]1O[C@@H](N2C(=O)NC(=O)C(C)(Br)C2OC)C[C@@H]1N=[N+]=[N-])Oc1ccccc1,-,-,p24,-,0.035 µM
COc1cc(OC)nc(N2C(=O)CSC2c2c(Cl)cccc2Cl)n1,N119,-,p24 / ELISA,-,2.65 µg/mL
Nc1nc(=O)n([C@@H]2C[C@@H](F)[C@H](CO)O2)cc1F,LAI,-,RT activity,-,>100 µM
COC(=O)[C@H](C)NP(=O)(OC[C@H]1O[C@@H](N2C(=O)NC(=O)C(C)(Br)C2OC)C[C@@H]1N=[N+]=[N-])Oc1ccc(Br)cc1,-,-,p24,-,0.005 µM
COC(=O)[C@H](C)NP(=O)(OC[C@@H]1C=C[C@H](n2cc(C)c(=O)[nH]c2=O)O1)Oc1ccc(Br)cc1,X267-2 NRTI resistant,RT-M41L T215Y,p24,-,0.0002 µM
C=CCN(C(=O)OCc1ccc2nonc2c1)C1CCN(C[C@H]2CN(C(=O)C3CCCC3)C[C@]2(O)c2ccccc2)CC1,-,-,p24,-,<0.005 µM
COC(=O)[C@H](C)NP(=O)(OC[C@@H]1CC[C@H](N2C(=O)NC(=O)C(C)(Br)C2OC)O1)Oc1ccc(Br)cc1,-,-,p24,-,1.924 µM
CC(C)CN(C[C@@H](O)[C@H](Cc1ccc(F)cc1)NC(=O)O[C@H]1CCO[C@H]2OCC[C@H]21)S(=O)(=O)c1ccc2nc(NC(C)C)sc2c1,92UG037,-,p24 / luminescence,-,0.0013 µM
COC(=O)[C@H](C)NP(=O)(OC[C@@H]1C=C[C@H](n2cc(C)c(=O)[nH]c2=O)O1)Oc1ccc(Br)cc1,NL4-3,-,RT activity,-,0.02 µM
Nc1nc2c(c(F)cn2C[C@H](CF)OCP(=O)(O)O)c(=O)[nH]1,BaL,-,luciferase,-,>100 µM
Cc1cc(C#N)c(C)c(Oc2c(C(F)(F)C(F)F)ncn(Cc3c(C)nc(C)[nH]c3=O)c2=O)c1,-,-,GFP,pseudotyped,0.3253 µM
C=CCN(C(=O)NCc1ccc(S(=O)ON(C)C)cc1)C1CCN([C@H]2CN(C(=O)C3CCCC3)C[C@]2(O)c2ccccc2)CC1,-,-,p24 / ELISA,-,<0.005 µM
COc1ccc(-c2oc3c(CC=C(C)C)c(OC4O[C@H](CO)[C@@H](O)[C@H](O)[C@H]4O)cc(O)c3c(=O)c2O[C@@H]2O[C@@H](C)[C@H](O)[C@@H](O)[C@H]2O)cc1,BK132,-,PCR,-,9.371 µM
Cc1nc(C)c(Cn2cnc(C(F)(F)C(F)F)c(Oc3cc(C(F)F)cc(C#N)c3Cl)c2=O)c(=O)[nH]1,-,-,GFP,pseudotyped,0.181 µM
Cc1cn([C@H]2C[C@H](N=[N+]=[N-])[C@@H](CO)O2)c(=O)[nH]c1=O,LAI,-,RT activity,-,0.007 µM
Cc1cn([C@H]2C[C@H](N=[N+]=[N-])[C@@H](CO)O2)c(=O)[nH]c1=O,G910-6,-,p24,-,>10 µM
C=CCN(C(=O)NCc1ccc(S(=O)ONC)cc1)C1CCN([C@H]2CN(C(=O)C3CCCC3)C[C@]2(O)c2ccccc2)CC1,-,-,p24 / ELISA,-,<0.005 µM
Cc1cn([C@H]2C[C@H](N=[N+]=[N-])[C@@H](CO)O2)c(=O)[nH]c1=O,BaKi (syncytium-inducing),-,cytopathic effect / XTT,-,0.001 µM
Nc1nc(=O)n([C@@H]2C[C@@H](O)[C@H](CO)O2)cc1Cl,LAI,-,RT activity,-,>100 µM
CC(C)(C)NC(=O)[C@@H]1CN(Cc2cccnc2)CCN1C[C@@H](O)C[C@@H](Cc1ccccc1)C(=O)N[C@H]1c2ccccc2C[C@H]1O,BR97 (PR L10I K20R M36I/V P63L/S L90M),PR-L10I K20R M36I/V P63L/S L90M,p24,-,0.003 µM
Nc1nc2c(ccn2C[C@H](CF)OCP(=O)(O)O)c(=O)[nH]1,NL4-3,-,luciferase,-,>100 µM
Nc1nc(=O)n([C@@H]2CS[C@H](CO)O2)cc1F,Clinical isolate,M184V,single cycle / fluorescence,-,>42 µM
Nc1ccn([C@@H]2C=C[C@H](CO)O2)c(=O)n1,LAI,-,RT activity,-,1 µM
CC[C@H]1OC(=O)[C@H](C)[C@@H](O[C@H]2C[C@@](C)(OC)[C@@H](O)[C@H](C)O2)[C@H](C)[C@@H](O[C@@H]2O[C@H](C)C[C@H](N(C)C)[C@H]2O)[C@](C)(O)C[C@@H](C)/C(=N\OCOCCOC)[C@H](C)[C@@H](O)[C@]1(C)O,LAV,-,RT activity,-,<1000 µM
N#Cc1cn(C[C@@H](CF)OCP(=O)(O)O)c2nc(N)[nH]c(=O)c12,BaL,-,luciferase,-,>100 µM
C=CCN(C(=O)NCc1ccc(C(F)(F)F)cc1)C1CCN([C@H]2CN(C(=O)C3CCC(F)(F)CC3)C[C@]2(O)c2ccccc2)CC1,-,-,p24 / ELISA,-,<0.05 µM
CC(C)CN(C[C@@H](O)[C@H](Cc1ccccc1)NC(=O)[C@H](CC(N)=O)NC(=O)c1ccc2ccccc2n1)C(=O)NC(C)(C)C,LAV,-,RT activity,-,<0.14 µM
C=CCN(C(=O)Cc1ccc(S(C)(=O)=O)cc1)C1CCN(C[C@H]2CN(C(=O)C3CCCC3)C[C@]2(O)c2ccccc2)CC1,-,-,p24,-,>0.1 µM
O=Nc1c(-c2c(O)[nH]c3ccccc23)[nH]c2ccccc12,IIIB X4,-,RT activity,-,0.5 µM
COc1cc(C[C@H](C)[C@H](C)Cc2ccc(O)c(O)c2)ccc1O,VS,-,p24,-,~10 µg/mL
Cn1c(N)nc2c(ncn2[C@H]2CO[C@@H](CO)O2)c1=O,LAI,-,RT activity,-,14.2 µM
COC1N([C@H]2C[C@H](N)[C@@H](CO)O2)C(=O)NC(=O)C1(C)Br,-,-,p24,-,0.25 µM
C=CCN(C(=O)Cc1ccc(S(=O)(=O)NC)cc1)C1CCN(C[C@H]2CN(C(=O)C3CCCC3)C[C@]2(O)c2ccccc2)CC1,-,-,p24,-,<0.005 µM
CC(C)(C)NC(=O)[C@@H]1CN(Cc2cccnc2)CCN1C[C@@H](O)C[C@@H](Cc1ccccc1)C(=O)N[C@H]1c2ccccc2C[C@H]1O,7324-1 NRTI resistant recombinant,RT-M41L D67N T69N K70R T215F K219E,p24,-,0.0218 µM
Nc1nc2c(ncn2[C@H]2CO[C@@H](CO)O2)c(=O)n1Cc1ccccc1,LAI,-,RT activity,-,>100 µM
O=c1[nH]cnc2c1ncn2[C@H]1CC[C@@H](CO)O1,8681 CLADE D CLADE D,-,p24,-,6.85 µM
CCCCCOC(=O)C[C@H](NP(=O)(CO[C@@H](CF)Cn1ccc2c(=O)[nH]c(N)nc21)N[C@@H](CC(=O)OCCCCC)C(=O)OCCCCC)C(=O)OCCCCC,BaL,-,luciferase,-,>4 µM
CC(C)n1nc(-c2ccc3oc(N)nc3c2)c2c(N)ncnc21,93UG082,-,p24 / ELISA,-,0.00289 µM
Nc1nc(NC2CC2)c2ncn([C@H]3CO[C@@H](CO)O3)c2n1,LAI,-,RT activity,-,0.85 µM
Cc1nnn([C@H]2C[C@H](n3cc(C)c(=O)[nH]c3=O)O[C@@H]2CO)c1C,LAV,-,RT activity,-,>100 µM
CC(C)CN(C[C@@H](O)[C@H](Cc1cc(F)cc(F)c1)NC(=O)O[C@H]1CCO[C@H]2OCC[C@H]21)S(=O)(=O)c1ccc2nc(NC(C)C)sc2c1,92UG029,-,p24 / luminescence,-,0.0022 µM
CC(C)(C)C(=O)SCCOP(=O)(OCCSC(=O)C(C)(C)C)OC[C@H]1CC[C@@H](n2cnc3c(N)ncnc32)O1,LAI,-,RT activity,-,0.002 µM

A second listing of 3 rows from above:

{"compound": "COc1cc(OC)nc(N2C(=O)CSC2c2c(Cl)cccc2Cl)n1", "strain or isolate": "N119", "read by": "p24 / ELISA", "result": "2.65 µg/mL"}
{"compound": "C=CCN(C(=O)Cc1ccc(S(=O)(=O)NC)cc1)C1CCN(C[C@H]2CN(C(=O)C3CCCC3)C[C@]2(O)c2ccccc2)CC1", "read by": "p24", "result": "<0.005 µM"}
{"compound": "O=c1[nH]cnc2c1ncn2[C@H]1CC[C@@H](CO)O1", "strain or isolate": "8681 CLADE D CLADE D", "read by": "p24", "result": "6.85 µM"}

Lines come from different laboratories, so protocols vary. ECn is the concentration giving n% inhibition of infection, replication or growth.